Measurements from article PMC12051497.
The exact form of at least one protein or probe is not confirmed.

Tested on: His-SUMO-AgtR (Pseudomonas aeruginosa PA14)
Test: EMSA
Settings: 0, 4 or 8 uM AgtR; recombinant protein; protein details: N-terminal 6xHis-SUMO

GTTCGCTTTCCTCAGTTTTTTGTCGTAGAGTGCTGACAC (double strand) [PcspC-5]
binding result: binds
